The experiment concerns Klebsiella pneumoniae. Kind of experiment: MIC, recent Enterobacteriaceae clinical isolates: Klebsiella pneumoniae (Examples 7, 11). To be noted: N 20.

Structures can show the parent of a compound that is named as a salt.

`CC1=C[C@@H]2CN(C(=O)N2OS(=O)(=O)O)[C@@H]1C(N)=O` [Compound 1, (2S,5R)-2-carbamoyl-3-methyl-7-oxo-1,6-diazabicyclo[3.2.1]oct-3-en-6-yl hydrogen sulfate] came in with an MIC range of 0.25 to 8 µg/mL.

The values are drawn from patent publication US10376499B2, “Combination therapy for treatment of resistant bacterial infections” (priority 2014, dated 2019).
